Data as given in PubChem BioAssay AID504761 (Drosophila RNAi Screening Center, 2011)

Aim: 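Genome-wide fly cell screen for genes dengue virus requires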 (primary screen)
System: D.Mel-2 cells from Drosophila
Reagents: long dsRNA against Drosophila genes
Challenge: infection with dengue virus type 2; dose and infection time not stated
Measurement: 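Per well on two replicate plates, imaging gave the percent of cells positive for viral envelope protein, ranked by infection, and a nuclear count of cells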
Direction: infection score: higher = more virus-infected cells; cell count: higher = more cells in the well
Hit rule: 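Very low infection ranking in both replicate wells (chance probability at most 0.065), then a retest showing infection dropped 1.5-fold or more at p below 0.05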
Meaning of the calls: active = confirmed: knock-down lowers infection; inactive = not picked or not confirmed
The screen tested about 22,000 reagents; below is a random part of those that have a named target and a result. Of all reagents, 116 (0.52%) are marked active. 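Calls depend on retest data that are not deposited; infection was ranked per plate without normalising between plates; the unit of the infection score is not given.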 The raw values are shown without normalisation. Not stated in the record: the amount of reagent, the time to read-out.

| predicted target | DRSC id | infection score, replicate 1 | infection score, replicate 2 | cell count, replicate 1 | cell count, replicate 2 | Call |
| --- | --- | --- | --- | --- | --- | --- |
| UbcE2M | DRSC10828 | 10.8 | 8.43 | 5525 | 4995 | inactive |
| porin | DRSC03594 | 27.2 | 8.25 | 5236 | 5979 | inactive |
| porin | DRSC27826 | 9.07 | 27.2 | 6657 | 3191 | inactive |
| CG11164 | DRSC19392 | 5.83 | 7.08 | 6588 | 6720 | inactive |
| RpL35A | DRSC12302 | 4.96 | 5.13 | 3248 | 4388 | inactive |
| CG12782 | DRSC04127 | 11.2 | 13.9 | 5318 | 5535 | inactive |
| Ube4A | DRSC02004 | 3.31 | 16.1 | 5916 | 5422 | inactive |
| hrg | DRSC07502 | 8.17 | 6.06 | 4776 | 5036 | inactive |
| Cyp4d8 | DRSC11131 | 8.13 | 3.53 | 6481 | 6376 | inactive |
| Cyp4d8 | DRSC29268 | 22.2 | 8.49 | 6185 | 6034 | inactive |
| Gcn2 | DRSC16678 | 0.63 | 2.03 | 6064 | 6643 | inactive |
| CG12659 | DRSC17862 | 0.41 | 2.39 | 6273 | 6269 | inactive |
| CG12659 | DRSC27326 | 16.6 | 7.46 | 6084 | 6405 | inactive |
| AANATL7 | DRSC18616 | 0.91 | 7.41 | 6826 | 6084 | inactive |
| CG8292 | DRSC03082 | 3.47 | 9.84 | 5932 | 5378 | inactive |
| CG7091 | DRSC12944 | 1.99 | 0.09 | 6490 | 6427 | inactive |
| CG7091 | DRSC16197 | 3.93 | 3.69 | 6777 | 6972 | inactive |
| M1BP | DRSC16566 | 21.6 | 30.3 | 3575 | 3465 | inactive |
| M1BP | DRSC29073 | 22.8 | 25.1 | 1525 | 3811 | inactive |
| betaTub85D | DRSC16910 | 4.68 | 2.29 | 3909 | 4060 | inactive |
| betaTub85D | DRSC25043 | 13.3 | 9.39 | 6339 | 6612 | inactive |
| CG14258 | DRSC14753 | 1.75 | 4.24 | 6124 | 6269 | inactive |
| CG32280 | DRSC08024 | 1.32 | 4.13 | 6135 | 5548 | inactive |

No new results follow: 4 of the entries above.
| predicted target | DRSC id | infection score, replicate 1 | infection score, replicate 2 | cell count, replicate 1 | cell count, replicate 2 | Call |
| --- | --- | --- | --- | --- | --- | --- |
| Gcn2 | DRSC16678 | 0.63 | 2.03 | 6064 | 6643 | inactive |
| CG12659 | DRSC17862 | 0.41 | 2.39 | 6273 | 6269 | inactive |
| CG12659 | DRSC27326 | 16.6 | 7.46 | 6084 | 6405 | inactive |
| AANATL7 | DRSC18616 | 0.91 | 7.41 | 6826 | 6084 | inactive |
